These results are taken from patent publication US20050120398A1, “Animal model for HCV infection” (Vertex Pharmaceuticals Incorporated, priority 2003, published 2005).

Molecules are shown by their SMILES.

In the experiment the target is Ad.WT.HCVpro (wild type HCV NS3•4A protease fused with SEAP) (Hepatitis C virus genotype 1a, UniProt P27958). Kind of experiment: HCV protease mouse model: SEAP in serum, wild type HCV protease adenovirus. The following applies: 300 mg/kg orally twice a day; 10^9.5 IFU/mice Ad.WT.HCVpro; serum 24 hours post-infection.

On to `CCC[C@H](NC(=O)[C@@H]1[C@H]2CCC[C@H]2CN1C(=O)[C@@H](NC(=O)[C@@H](NC(=O)c1cnccn1)C1CCCCC1)C(C)(C)C)C(=O)C(=O)NC1CC1` [VX-950], for which the “fold reduction in the SEAP secretion in the serum compared to untreated controls” value is listed as 27 fold.
